This note sets out measurements from article PMC10892871 (Viruses, 2024).

The subject of the assay is wild type B.1 SARS-CoV-2. The class given is cell-based.

Regarding cilgavimab, the IC50 – broadly, the concentration needed to halve the response being measured – is on record as 0.20 ± 0.13 µg/mL and the “IC50 vs. B.1 Mean ± SD” value amounted to 0.204 ± 1.354 µg/mL.
With tixagevimab, the IC50 is 0.07 ± 0.04 µg/mL and the “IC50 vs. B.1 Mean ± SD” value stood at 0.068 ± 0.041 µg/mL.
